Anti-infective test results gathered from many reports (values: NIAID ChemDB through PubChem).

All rows: growth or infection tests; organism: Mycobacterium tuberculosis

A number after MIC or MFC names an inhibition level or a share of isolates. Lines come from different laboratories, so protocols vary. Inhibition is in % at the dose shown (toxicity tests: loss of growth or viability). Fold resistance has wild type as its base. ECn is the concentration giving n% inhibition of infection, replication or growth. MIC bound: limit read from a one-dose screen. Blank or dashed fields: not listed here.

SMILES	mutations	endpoint	read by	strain or isolate	dose	result
Cc1ccc(S(=O)(=O)Oc2ccc3sc4c(CO)ccc(NCCN(C)C)c4c(=O)c3c2)cc1		inhibition	BACTEC	H37Rv	12.5 µg/mL	100%
CCOC(=O)c1cc(-c2ccccc2)n(CCC(=O)NN)c1C		inhibition	BACTEC	H37Rv	6.25 µg/mL	0%
CN(C)CCCOc1cc(Nc2cc(C3CC3)[nH]n2)nc(-c2ccccc2)n1		MIC90	resazurin	H37Rv		32 µM
CCOC(=O)c1c(NC(=O)c2c(F)c(F)c(F)c(F)c2F)sc2c1CCOC2		EC90	turbidity	ATCC 35822		0.28 µM
C1CC[N+]2(CC1)CCCCC2.NC(=S)[S-]		MIC		ETA-R		1.6 µg/mL
CCOC(=O)/C=C\C(=O)c1cc2ccccc2s1		MIC				0.4 µM
CCOC(=O)c1cc(-c2ccc(Cl)cc2)n(CC(=O)N/N=C/c2ccc([N+](=O)[O-])o2)c1C		inhibition	BACTEC	H37Rv	6.25 µg/mL	55%
CN(C)[C@@H]1CCN(c2cc(Nc3cc(C(F)(F)F)c(Br)cn3)nc(-c3ccccc3)n2)C1		MIC90	resazurin	H37Rv		16 µM
CCOC(=O)c1cc(-c2ccc(-c3ccccc3)cc2)n(CC(=O)NN)c1C		inhibition	BACTEC	H37Rv	6.25 µg/mL	0%
CSc1ccc(Cc2c(C)c(C#N)c3[nH]c4ccccc4n3c2=O)cc1		MIC90	resazurin	H37Rv		0.5 µg/mL
CCc1nc2ccc(C)cc2n1CCCNc1ccccc1	QcrB M342T	fold resistance	turbidity / fluorescence	H37Rv		41
CCCCCCCCS(=O)CC(=O)OC		MIC		H37Rv		>25 µg/mL
c1ccc2c(c1)[nH]c1ccccc12		MIC		H37Rv		>128 µM
Cc1ccc(-c2cnnc(N3CCC(c4ccccc4)C3)n2)o1		MIC	resazurin	H37Rv		40.5 µM
CCOC(=O)c1cc(-c2ccc(Cl)cc2)n(CC(=O)NN)c1C		EC50	BACTEC	H37Rv		>6.25 µg/mL
CCCCN1CCC2(CC1)N=c1c(c3c4c5c(C)c(O)c3c(O)c1=NC(=O)/C(C)=C\C=C\[C@H](C)[C@H](O)[C@@H](C)[C@@H](O)[C@@H](C)[C@H](OC(C)=O)[C@H](C)[C@@H](OC)/C=C/O[C@@](C)(O5)C4=O)N2		MIC		H37Rv		0.0012 µg/mL
CCCCCCCn1c2ccccc2c2c(OC)c(CO)c(C)cc21		MIC		H37Rv		11 µM
CN1CCC(=C2C3=C(CCc4ccccc42)SCC3)CC1		MIC		H37Rv		32 µg/mL
CCCCCN1CCC2(CC1)N=c1c(c3c4c5c(C)c(O)c3c(O)c1=NC(=O)/C(C)=C\C=C\[C@H](C)[C@H](O)[C@@H](C)[C@@H](O)[C@@H](C)[C@H](OC(C)=O)[C@H](C)[C@@H](OC)/C=C/O[C@@](C)(O5)C4=O)N2		MIC		H37Rv		0.0012 µg/mL
CCN1CCc2c(sc(NC(=O)c3c(F)c(F)c(F)c(F)c3F)c2C(=O)NC)C1		MIC	low oxygen			50 µM
CC(=O)NCCSS(=O)(=O)CCCCS(=O)(=O)SCCNC(C)=O		inhibition	BACTEC	H37Rv	6.25 µg/mL	0%
CN1CCC[C@@H]1CCO[C@](C)(c1ccccc1)c1ccc(Cl)cc1		MIC		H37Ra		8 µg/mL
Nc1ccc2cc(-n3nncc3COc3nc(-c4ccccc4)sc3C(=O)O)c(=O)oc2c1		MIC	resazurin	H37Rv		27.08 µM
COC1=C(C)C(C)(O)c2[nH]c3ccccc3c2C1=O		MIC		H37Rv		>128 µM
CO[C@H]1/C=C/O[C@@]2(C)Oc3c(C)c(O)c4c(O)c(c5c(c4c3C2=O)NC2(CCN(C(C)C(C)C)CC2)N=5)=NC(=O)/C(C)=C\C=C\[C@H](C)[C@H](O)[C@@H](C)[C@@H](O)[C@@H](C)[C@H](OC(C)=O)[C@@H]1C		MIC		H37Rv		0.0025 µg/mL
CCC[CH2][Sn]([Br])([I])[CH2]CCC.c1cnc2c(c1)ccc1cccnc12		MIC	BACTEC	H37Rv		3.13 µg/mL
CC(C)[C@@H]1CCN(c2cc(Nc3ccccn3)nc(-c3ccccc3)n2)C1		MIC99		H37Rv		10 µM
CCc1ccc2c(c1)[nH]c1ccc(N)cc12		MIC		H37Rv		55 µM
CCOC(=O)c1c(NC(=O)c2c(F)c(F)c(F)c(F)c2F)sc2c1CCNC2=O	katG Y155 truncation mutant	MIC	turbidity	H37Rv		4.4 µM
Cc1nc2ccccc2nc1C(=O)/C=C/c1ccc([N+](=O)[O-])cc1		EC90	resazurin	H37Rv		>250 µM
COC(=O)c1nn2c(=O)[nH]c3ccccc3c2c1C(=O)OC		inhibition	BACTEC	H37Rv	12.5 µg/mL	2%
O=C(O)c1sc(-c2ccncc2)nc1OCc1cnnn1-c1cc2ccc(O)cc2oc1=O		MIC	resazurin	H37Rv		26.97 µM
CCCN1CCC2(CC1)N=c1c(c3c4c5c(C)c(O)c3c(O)c1=NC(=O)/C(C)=C\C=C\[C@H](C)[C@H](O)[C@@H](C)[C@@H](O)[C@@H](C)[C@H](OC(C)=O)[C@H](C)[C@@H](OC)/C=C/O[C@@](C)(O5)C4=O)N2		MIC		H37Rv		0.005 µg/mL
CN(C)CCCN1c2ccccc2CCc2ccccc21		MIC		H37Ra		32 µg/mL
CCOc1ccc2cc(-n3nncc3COc3nc(-c4ccccc4)sc3C(=O)O)c(=O)oc2c1		MIC	resazurin	H37Rv		25.49 µM
CN1CCC(OC(c2ccccc2)c2ccccc2)CC1		MIC		H37Ra		64 µg/mL
O=c1cc(N2CCOCC2)n2ccccc2n1		inhibition	resazurin	H37Rv	6.25 µg/mL	-9%
CCCCCCCCS(=O)(=O)CC(=O)OCc1ccccc1		MIC		H37Rv		6.25 µg/mL
C[C@@H]1CN(c2c(F)c(N)c3c(=O)c(C(=O)O)cn(C4CC4)c3c2F)C[C@H](C)N1		MIC50		20 strains		0.25 µg/mL
C/C(=N\N)c1c(C)[nH]c(C(=O)NN)c1C		EC50	BACTEC	H37Rv		>6.25 µg/mL
CCc1nc2ccccc2n1CCCCNc1ccc(OC)cc1	WT	MIC90	turbidity / fluorescence	H37Rv		6.9 µM
CCN(CC)CCNc1ccc(OC)c2sc3ccccc3c(=O)c12		inhibition	BACTEC	H37Rv	12.5 µg/mL	99%
CCOc1ccc2cc(-n3nncc3COc3nc(-c4cccnc4)sc3C=O)c(=O)oc2c1		MIC	resazurin	H37Rv		26.29 µM
Cc1ccc2c(c1)[nH]c1ccccc12		MIC		H37Rv		>128 µM
CN(C)CCOC(c1ccc(Cl)cc1)c1ccccn1		MIC		H37Ra		128 µg/mL
COc1ccc(Cc2c(C)c(C#N)c3[nH]c4ccccc4n3c2=O)cc1		MIC90	resazurin	TF274		0.5 µg/mL
CCc1nc2ccc(C)cc2n1CCCCNc1ccc(C)cc1	Rv1339 V90M	MIC90	turbidity / fluorescence	H37Rv		0.74 µM
CCCCCCCCCCSCC(N)=O		MIC		H37Rv		>25 µg/mL
CN1CCN(CCOc2cc(Nc3cc(C4CC4)[nH]n3)nc(-c3ccccc3)n2)CC1		MIC99		H37Rv		10 µM
Oc1ccc2c(c1)[nH]c1ccccc12		MIC		H37Rv		>128 µM
CCCCCCCCCS(=O)CC(N)=O		MIC		H37Rv		6.25 µg/mL
C=CCn1c(=O)c(C(=O)Nc2nc(C34CC5CC(CC(C5)C3)C4)cs2)c(O)c2ccccc21		MIC bound	resazurin	H37Rv		<6.25 µg/mL
CC[n+]1c(-c2ccccc2)c2cc(N)ccc2c2ccc(N)cc21		MIC	PCR	H37Rv (ATCC 27294)		64 µg/mL
CN1CCN(c2ccc(Nc3ncc(Br)c(NCC(C)(C)CNC(=O)C4CCC4)n3)cn2)CC1		MIC90	resazurin	H37Rv		64 µM
Cc1cc2nc3cc(C)c(N)cc3[n+](-c3ccccc3)c2cc1N.[Cl-]		inhibition	BACTEC	H37Rv	12.5 µg/mL	100%
CCOc1ccc2cc(-n3nncc3COc3nc(-c4ccncc4)sc3C(=O)OC)c(=O)oc2c1		MIC	resazurin	H37Rv		24.72 µM
Nc1nc(-c2ccc3c(c2)Sc2ccccc2O3)cs1		MIC bound	BACTEC	H37Rv		>12.5 µg/mL
CCOC(=O)c1c(C)c(-c2ccccc2)n(CCC(=O)NN)c1C		EC50	BACTEC	H37Rv		>6.25 µg/mL
NC1(C(=O)O)CSSC1		MIC bound	BACTEC	H37Rv		>12.5 µg/mL
CCc1nc2ccccc2n1CCCCNc1ccc(-c2ccccn2)cc1	QcrB M342T	MIC90	turbidity / fluorescence	H37Rv		22 µM
O=[N+]([O-])c1ccc2[nH]c(=S)n(/C=C(/c3ccc(Cl)cc3)S(=O)(=O)Cc3ccc(Cl)cc3)c2c1		MIC bound	resazurin	H37Rv		>6.25 µg/mL
Cc1c(F)c(N2CCNC(C)C2)cc2c1c(=O)c(C(=O)O)cn2C1CC1		MIC50		33 clinical isolates		0.5 µg/mL
CCN1CCc2c(sc(NC(=O)c3c(F)c(F)c(F)c(F)c3F)c2C#N)C1		EC90	turbidity	ATCC35838		13 µM
CCc1ccc2c(c1)[nH]c1ccccc12		MIC		H37Rv		>128 µM
N#Cc1c(NC(=O)c2c(F)c(F)c(F)c(F)c2F)sc2c1CCOC2		MIC	low oxygen			180 µM
NC(N)=NC1=C(Cl)C(=O)c2ccccc2C1=O		inhibition	BACTEC	H37Rv	12.5 µg/mL	5%
CO[C@H]1/C=C/O[C@@]2(C)Oc3c(C)c(O)c4c(O)c(c5c(c4c3C2=O)NC2(CCNCC2)N=5)=NC(=O)/C(C)=C\C=C\[C@H](C)[C@H](O)[C@@H](C)[C@@H](O)[C@@H](C)[C@H](OC(C)=O)[C@@H]1C		MIC		H37Rv		0.01 µg/mL
O=C(NCc1ccccc1)Nc1nc(-c2ccccc2)c(-c2ccccc2)nc1C(=O)NCc1ccccc1		MIC bound	BACTEC	H37Rv		>12.5 µg/mL
CC(=O)c1c(C)[nH]c(C(=O)NN)c1C		inhibition	BACTEC	H37Rv	6.25 µg/mL	12%
CCNC(=O)c1c(NC(=O)c2c(F)c(F)c(F)c(F)c2F)sc2c1CCN(CC)C2	rpoB S522L mutant	MIC	turbidity	H37Rv		8.5 µM
O=c1[nH]nc(OCc2ccccc2)c2ncn(Cc3ccccc3)c12		MIC bound	BACTEC	H37Rv		>12.5 µg/mL
CCN1CCc2c(sc(NC(=O)c3c(F)c(F)c(F)c(F)c3F)c2C(N)=O)C1		MIC	turbidity	ATCC 35838 RIF-R2 rifampicin-resistant		8.6 µM
S=c1nc2[nH]c3ccccc3c2n[nH]1		inhibition	BACTEC	H37Rv	12.5 µg/mL	-15%
CCc1nc2ccccc2n1CCSc1nnc(-c2ccc(Cl)cc2)o1		MIC99	turbidity / fluorescence	H37Rv		>20 µM
CC(=O)Nc1nc(NC(C)=O)c2nc(CCN(C)c3ccc(C(=O)O)cc3)cnc2n1		inhibition	BACTEC	H37Rv	12.8 µg/mL	10%
CCc1nc2ccccc2n1CCCCOc1ccc(Cl)cc1	QcrB M342T	MIC90	turbidity / fluorescence	H37Rv		>100 µM
CC1/C(=N\O)CC(c2ccccc2)N(C)C1c1ccccc1		inhibition	resazurin	H37Rv	6.25 µg/mL	82%
CCCCCC(CC(=O)N1N=CCCC1C(=O)N[C@H]1COC(=O)C2C[C@@H](C)CNN2C(=O)[C@H](C)NC(=O)[C@@H](CC(C)C)NC1=O)C(=O)O		MIC		246		25 µg/mL
CCCCOC(=O)CCN1CCN(c2ccc(C)cc2)CC1		MIC bound	resazurin	H37Rv		>6.25 µg/mL
CO[C@H]1/C=C/O[C@@]2(C)Oc3c(C)c(O)c4c(O)c5c(c(O)c4c3C2=O)CN=C(N5)/C(C)=C\C=C\[C@H](C)[C@H](O)[C@@H](C)[C@@H](O)[C@@H](C)[C@H](OC(C)=O)[C@@H]1C		MIC		243		>1 µg/mL
CC(C)[C@H]1C(=O)OC[C@@H](NC(=O)c2cnc3ccccc3n2)C(=O)N[C@@H](C)C(=O)N(C)[C@@H]2CSSC[C@H](C(=O)N1C)N(C)C(=O)[C@H](C)NC(=O)[C@H](NC(=O)c1cnc3ccccc3n1)COC(=O)[C@H](C(C)C)N(C)C2=O		MIC bound	BACTEC	H37Rv		≤12.5 µg/mL
CCOC(=O)c1cc(-c2ccc([N+](=O)[O-])cc2)n(CC(=O)NN)c1C		EC50	BACTEC	H37Rv		>6.25 µg/mL

10 of the rows above, restated:

SMILES | mutations | endpoint | read by | strain or isolate | dose | result
C[C@@H]1CN(c2c(F)c(N)c3c(=O)c(C(=O)O)cn(C4CC4)c3c2F)C[C@H](C)N1 |  | MIC50 |  | 20 strains |  | 0.25 µg/mL
COC1=C(C)C(C)(O)c2[nH]c3ccccc3c2C1=O |  | MIC |  | H37Rv |  | >128 µM
CCCCCN1CCC2(CC1)N=c1c(c3c4c5c(C)c(O)c3c(O)c1=NC(=O)/C(C)=C\C=C\[C@H](C)[C@H](O)[C@@H](C)[C@@H](O)[C@@H](C)[C@H](OC(C)=O)[C@H](C)[C@@H](OC)/C=C/O[C@@](C)(O5)C4=O)N2 |  | MIC |  | H37Rv |  | 0.0012 µg/mL
Cc1ccc(-c2cnnc(N3CCC(c4ccccc4)C3)n2)o1 |  | MIC | resazurin | H37Rv |  | 40.5 µM
CCOC(=O)c1c(NC(=O)c2c(F)c(F)c(F)c(F)c2F)sc2c1CCNC2=O | katG Y155 truncation mutant | MIC | turbidity | H37Rv |  | 4.4 µM
CCOC(=O)c1cc(-c2ccc(-c3ccccc3)cc2)n(CC(=O)NN)c1C |  | inhibition | BACTEC | H37Rv | 6.25 µg/mL | 0%
CN(C)CCCN1c2ccccc2CCc2ccccc21 |  | MIC |  | H37Ra |  | 32 µg/mL
CCOC(=O)c1cc(-c2ccc(Cl)cc2)n(CC(=O)NN)c1C |  | EC50 | BACTEC | H37Rv |  | >6.25 µg/mL
Nc1ccc2cc(-n3nncc3COc3nc(-c4ccccc4)sc3C(=O)O)c(=O)oc2c1 |  | MIC | resazurin | H37Rv |  | 27.08 µM
S=c1nc2[nH]c3ccccc3c2n[nH]1 |  | inhibition | BACTEC | H37Rv | 12.5 µg/mL | -15%